In US10428060B2, “PI-kinase inhibitors with anti-infective activity” (The Board of Trustees of the Leland Stanford Junior …, priority 2011, dated 2019):

Test system: Ebola
Experiment: microbe, parasite or virus in culture
Type: cell-based
Conditions: Zaire ebolavirus, read-out: Ebola EC50

`COc1ccc(-c2sc(NC(=O)CC3CCOCC3)nc2C)cc1S(=O)(=O)Nc1ccccc1C` [Compound S-228, N-[5-[4-methoxy-3-(o-tolylsulfamoyl)phenyl]-4-methyl-thiazol-2-yl]-2-tetrahydropyran-4-yl-acetamide] showed an EC50 of 1 to 10 µM.
